Measurements: ChEMBL document CHEMBL4359929, “Piperidine and piperazine inhibitors of fatty acid amide hydrolase targeting excitotoxic pathology” (Bioorg Med Chem, 2019)

How the values were obtained:
[1] = Selectivity ratio of IC50 for human full length ABHD6 expressed in Escherichia coli cells to IC50 for rat recombinant His/GST-tagged FAAH expressed in Escherichia coli cells by fluorescence based assay
[2] = Selectivity ratio of IC50 for human recombinant His-tagged MGL expressed in Escherichia coli BL21 DE3 cells to IC50 for rat recombinant His/GST-tagged FAAH expressed in Escherichia coli cells by fluorescence based assay
Homo sapiens [3] = species on record: Homo sapiens; experiment: Selectivity ratio of IC50 for human full length ABHD6 expressed in Escherichia coli cells to IC50 for human recombinant MBP-tagged FAAH expressed in Escherichia coli cells by fluorescence based assay
Homo sapiens [4] = species on record: Homo sapiens; experiment: Selectivity ratio of IC50 for human recombinant His-tagged MGL expressed in Escherichia coli BL21 DE3 cells to IC50 for human recombinant MBP-tagged FAAH expressed in Escherichia coli cells by fluorescence based assay

Measured: Ratio IC50

O=C(Oc1cncc(N2CCS(=O)(=O)CC2)c1)N1CCC(c2ccc(F)cc2)CC1
> 1000: [1] | [2] | Homo sapiens [3] | Homo sapiens [4]
